This passage reports Ki results from BindingDB's records for 34798775 (2021).

The structures appear in SMILES notation.

This experiment addresses Replicase polyprotein 1ab (Severe acute respiratory syndrome coronavirus, UniProt P0C6X7). The experiment is described as follows: ASSAY_NAME: Various Assay DESCRIPTION: This is a review article. Please point to the original journal.

For the molecule `COc1ccccc1NCC(=O)N[C@@H](CC(C)C)C(=O)N[C@@H](C[C@@H]1CCNC1=O)C(=O)c1nc2ccccc2s1`, the Ki was 330 nM.
With `CC(C)C[C@H](NC(=O)COc1ccccc1)C(=O)N[C@@H](C[C@@H]1CCNC1=O)C(=O)c1nc2ccccc2s1` the figure was 560 nM; with `COc1ccc(CC(=O)N[C@@H](CC(C)C)C(=O)N[C@@H](C[C@@H]2CCNC2=O)C(=O)c2nc3ccccc3s2)cc1`, 420 nM; with `Nc1ccccc1C(=O)On1nnc2ccccc21`, 20 nM.
